Results on 2 compounds are retold here after patent US6514997B2, “Antipicornaviral compounds and compositions, their pharmaceutical uses, and materials for their synthesis” (Agouron Pharmaceuticals, Inc., priority 1999, dated 2003).

The subject of series [1] is HRV-14. Briefly: Antirhinoviral H1-HeLa cell culture assay (XTT cell protection, EC50), HRV-14. The format is cell-based, human rhinovirus (HRV) serotype-14 in H1-HeLa cells. Summed up: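 H1-HeLa cells were infected with HRV-14 at m.o.i. 0.13, or mock-infected, and incubated with compound for two days. Cell protection was read by XTT/PMS formazan absorbance at 450/650 nm to give EC50. CC50 came from mock-infected cells, and TI = CC50/EC50.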

For series [2], the system named is Coxsackievirus type B3 (CVB3). Description: Anticoxsackieviral cell culture assay (XTT, EC50), CVB3. The format is cell-based, coxsackievirus B3 in H1-HeLa cells. The procedure:
(§1) Anticoxsackieviral Cell Culture Assay:
(§2) Coxsackievirus types A-21 (CAV-21) and B3 (CVB3) were purchased from American Type Culture Collection (ATCC, Rockville, Md.). Virus stocks were propagated and antiviral assays were performed in H1-HeLa cells (ATCC). Cells were grown in minimal essential medium with 10% fetal bovine serum (Life Technologies, Gaithersburg, Md.). The ability of the compounds of this invention to protect cells against either CAV-21 or CVB3 infection was measured by the XTT dye reduction method. This method is described in Weislow et al., J. Natl. Cancer Inst. (1989), vol. 81, 577-586. H1-HeLa cells were infected with CAV-21 or CVB3 at a multiplicity of infection (m.o.i.) of 0.025 or 0.075, respectively, or mock-infected with medium only. H1-HeLa cells were plated at 4×10^4 cells per well in a 96-well plate and incubated with appropriate concentrations of the test compound. One day (CVB3) or two days (CAV-21) later, XTT/PMS was added to test plates and the amount of formazan produced was quantified spectrophotometrically at 450/650 nm. The EC50 was calculated as the concentration of compound that increased the formazan production in compound-treated, virus-infected cells to 50% of that produced by compound-free, uninfected cells. The 50% cytotoxic dose (CC50) was calculated as the concentration of compound that decreased formazan production in compound-treated, uninfected cells to 50% of that produced in compound-free, uninfected cells. The therapeutic index (TI) was calculated by dividing the CC50 by the EC50.

Series [3] concerns coxsackievirus B5 (CVB5). Description: Antiviral cell culture assay (EC50), coxsackievirus B5. Format: cell-based.
Series [4] has as its system echovirus 9 (ECHO-9). Briefly: Antiviral cell culture assay (EC50), echovirus 9. Format: cell-based. The conditions noted are these: ECHO9.
Series [5] deals with coxsackievirus B2 (CVB2). Description: Antiviral cell culture assay (EC50), coxsackievirus B2. The format is cell-based.
The test system of series [6] is strains of human rhinovirus (HRV). Briefly: Antirhinoviral H1-HeLa cell culture assay (XTT cell protection, EC50), other HRV strains. The format is cell-based, human rhinovirus in H1-HeLa cells. Summed up:
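H1-HeLa cells infected, or mock-infected, were incubated with compounds for two days. Cell protection measured by XTT/PMS formazan absorbance at 450/650 nm; TI taken as CC50 divided by EC50.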

Series [7] deals with Coxsackievirus type A-21 (CAV-21). Briefly: Anticoxsackieviral cell culture assay (XTT, EC50), CAV-21. The format is cell-based, coxsackievirus A-21 in H1-HeLa cells. The protocol: as §1, §2

`CC[C@@H](C(=O)N[C@H](/C=C/C(=O)OCc1ccccc1)C[C@@H]1CCNC1=O)n1cccc(NC(=O)c2cc(C)on2)c1=O` [Compound 62, trans-(2′S,3′″″S,4S)-4-[2′-(3″-{[1′″-(5″″-Methylisoxazol-3″″-yl)methanoyl]amino}-2′″oxo-2′″H-pyridin-1′″-yl)butanoylamino]-5-(2′″″-oxopyrrolidin-3′″″-yl)pent-2-enoic Acid Benzyl Ester]: the TI in series [1] was more than 163; in series [2], more than 666; in series [3], more than 500; in series [4] it was more than 2500; in series [5] it was more than 625; in series [6] (HRV-1A) it was more than 588. For the same compound, the TI is more than 222 in series [6] (HRV-2); more than 192 in series [6] (HRV-3); more than 76 in series [6] (HRV-9); more than 192 in series [6] (HRV-10); more than 1000 in series [6] (HRV-11); more than 2500 in series [6] (HRV-13). Besides, the TI in series [6] (HRV-16) is on record as more than 188; in series [6] (HRV-19), more than 476; in series [6] (HRV-23), more than 312; in series [6] (HRV-25) it was more than 555; in series [6] (HRV-39) it was more than 232; in series [6] (HRV-78), more than 175. Also, the TI in series [6] (HRV-Hanks) is on record as more than 192; in series [7], more than 33.
For the compound `C#CC[C@@H](C(=O)N[C@H](/C=C/C(=O)OCc1ccccc1)C[C@@H]1CCNC1=O)n1cccc(NC(=O)c2cc(C)on2)c1=O` [Compound 63, trans-(2′S,3′″″S,4S)-4-[2′-(3″-{[1′″-(5″″-Methylisoxazol-3″″-yl)methanoyl]amino}-2′″-oxo-2′″H-pyridin-1′″-yl)pent-4″-ynoylamino]-5-(2′″″-oxopyrrolidin-3′″″-yl)pent-2-enoic Acid Benzyl Ester], the TI is recorded as more than 196 in series [1]; more than 714 in series [2]; more than 1000 in series [3]; more than 5000 in series [4]; more than 833 in series [5]; more than 833 in series [6] (HRV-1A). The TI in series [6] (HRV-2) was more than 416; in series [6] (HRV-3), more than 370; in series [6] (HRV-9), more than 153; in series [6] (HRV-10), more than 217; in series [6] (HRV-11) it was more than 588; in series [6] (HRV-13), more than 222. Also, the TI was more than 217 in series [6] (HRV-16); more than 714 in series [6] (HRV-19); more than 270 in series [6] (HRV-23); more than 1428 in series [6] (HRV-25); more than 285 in series [6] (HRV-39); more than 294 in series [6] (HRV-78). Besides, the values for the TI in series [6] (HRV-Hanks) and in series [7] were more than 25 and more than 65, respectively.
